# US20080274976A1, “USES OF NOVEL POTASSIUM CHANNEL BLOCKERS” (priority 2002, published 2008)
# Protein sequences, listed by entry. Tags and fused reporters are not part of them. Chains listed by the source or under a name are the forms on record and can include a tag or linker. Residues count along the entry.
# UniProt P08510, whole entry, looked up: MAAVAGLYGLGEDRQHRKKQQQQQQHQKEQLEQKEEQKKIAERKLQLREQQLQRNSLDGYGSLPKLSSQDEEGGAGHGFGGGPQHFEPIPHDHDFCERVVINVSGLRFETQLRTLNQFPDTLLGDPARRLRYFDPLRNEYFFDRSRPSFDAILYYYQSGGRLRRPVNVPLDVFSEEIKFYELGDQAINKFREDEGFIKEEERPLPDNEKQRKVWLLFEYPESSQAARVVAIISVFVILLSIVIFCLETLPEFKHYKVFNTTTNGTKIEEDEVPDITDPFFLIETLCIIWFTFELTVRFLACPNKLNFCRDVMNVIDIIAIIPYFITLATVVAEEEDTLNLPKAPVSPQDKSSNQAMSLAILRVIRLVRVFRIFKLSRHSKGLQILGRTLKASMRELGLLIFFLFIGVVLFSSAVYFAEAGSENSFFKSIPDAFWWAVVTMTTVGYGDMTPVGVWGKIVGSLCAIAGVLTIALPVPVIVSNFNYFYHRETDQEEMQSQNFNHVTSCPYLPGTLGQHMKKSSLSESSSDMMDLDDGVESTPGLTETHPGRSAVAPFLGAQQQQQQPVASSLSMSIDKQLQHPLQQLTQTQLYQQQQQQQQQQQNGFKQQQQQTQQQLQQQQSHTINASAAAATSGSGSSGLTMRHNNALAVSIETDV
# UniProt P08510, 1-655 with tags or gaps DEL6-46/K427D: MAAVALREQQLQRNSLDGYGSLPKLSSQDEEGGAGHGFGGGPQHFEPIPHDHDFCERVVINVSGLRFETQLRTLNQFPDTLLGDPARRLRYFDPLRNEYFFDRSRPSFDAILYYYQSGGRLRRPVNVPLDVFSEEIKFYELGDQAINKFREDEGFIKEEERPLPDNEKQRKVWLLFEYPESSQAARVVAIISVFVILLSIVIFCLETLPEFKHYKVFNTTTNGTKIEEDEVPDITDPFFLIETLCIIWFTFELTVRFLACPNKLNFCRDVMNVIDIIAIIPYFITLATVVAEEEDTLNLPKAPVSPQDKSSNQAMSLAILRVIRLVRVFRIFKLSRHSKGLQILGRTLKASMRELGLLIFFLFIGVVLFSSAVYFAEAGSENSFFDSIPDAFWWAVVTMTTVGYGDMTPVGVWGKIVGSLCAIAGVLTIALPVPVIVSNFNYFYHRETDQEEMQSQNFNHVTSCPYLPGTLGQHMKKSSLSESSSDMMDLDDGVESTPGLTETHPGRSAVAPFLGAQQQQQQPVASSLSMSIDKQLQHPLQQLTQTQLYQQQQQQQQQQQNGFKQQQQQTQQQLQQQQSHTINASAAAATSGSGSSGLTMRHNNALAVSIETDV
# UniProt P08510, whole entry F425G, looked up: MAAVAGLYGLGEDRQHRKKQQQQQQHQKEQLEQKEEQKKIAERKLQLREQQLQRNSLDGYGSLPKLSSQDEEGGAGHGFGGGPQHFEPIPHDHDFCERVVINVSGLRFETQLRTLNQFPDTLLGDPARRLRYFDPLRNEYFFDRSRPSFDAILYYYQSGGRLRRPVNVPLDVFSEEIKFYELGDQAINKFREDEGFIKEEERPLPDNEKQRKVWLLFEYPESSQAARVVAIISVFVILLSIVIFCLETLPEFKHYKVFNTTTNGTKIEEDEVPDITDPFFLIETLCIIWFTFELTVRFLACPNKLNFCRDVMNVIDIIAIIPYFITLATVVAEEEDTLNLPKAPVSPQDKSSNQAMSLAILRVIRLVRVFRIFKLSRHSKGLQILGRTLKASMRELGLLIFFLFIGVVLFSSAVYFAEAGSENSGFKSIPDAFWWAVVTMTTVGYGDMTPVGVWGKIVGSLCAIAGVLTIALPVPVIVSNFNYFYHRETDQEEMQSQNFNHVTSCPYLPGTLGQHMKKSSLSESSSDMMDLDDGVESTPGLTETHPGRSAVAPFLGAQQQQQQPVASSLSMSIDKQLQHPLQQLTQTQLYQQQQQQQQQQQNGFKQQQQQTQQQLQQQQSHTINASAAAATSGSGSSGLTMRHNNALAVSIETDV
# UniProt P08510, whole entry T449Y, looked up: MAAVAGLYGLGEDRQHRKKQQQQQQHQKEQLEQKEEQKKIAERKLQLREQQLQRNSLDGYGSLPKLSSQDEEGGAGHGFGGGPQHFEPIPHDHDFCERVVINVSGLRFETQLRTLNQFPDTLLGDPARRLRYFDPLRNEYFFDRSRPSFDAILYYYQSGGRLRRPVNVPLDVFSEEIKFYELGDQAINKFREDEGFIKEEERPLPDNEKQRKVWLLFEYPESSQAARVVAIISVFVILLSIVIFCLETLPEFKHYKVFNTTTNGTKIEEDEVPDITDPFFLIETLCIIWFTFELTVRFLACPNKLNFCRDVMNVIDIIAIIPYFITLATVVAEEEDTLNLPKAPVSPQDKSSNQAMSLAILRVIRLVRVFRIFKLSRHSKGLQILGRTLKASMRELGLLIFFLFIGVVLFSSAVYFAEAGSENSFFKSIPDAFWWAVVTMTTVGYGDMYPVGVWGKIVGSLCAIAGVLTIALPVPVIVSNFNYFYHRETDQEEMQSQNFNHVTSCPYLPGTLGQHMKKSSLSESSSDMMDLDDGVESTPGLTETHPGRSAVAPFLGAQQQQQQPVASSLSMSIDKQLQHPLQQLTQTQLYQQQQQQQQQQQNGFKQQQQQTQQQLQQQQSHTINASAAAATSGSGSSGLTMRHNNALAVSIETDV
# UniProt P04775, whole entry, looked up: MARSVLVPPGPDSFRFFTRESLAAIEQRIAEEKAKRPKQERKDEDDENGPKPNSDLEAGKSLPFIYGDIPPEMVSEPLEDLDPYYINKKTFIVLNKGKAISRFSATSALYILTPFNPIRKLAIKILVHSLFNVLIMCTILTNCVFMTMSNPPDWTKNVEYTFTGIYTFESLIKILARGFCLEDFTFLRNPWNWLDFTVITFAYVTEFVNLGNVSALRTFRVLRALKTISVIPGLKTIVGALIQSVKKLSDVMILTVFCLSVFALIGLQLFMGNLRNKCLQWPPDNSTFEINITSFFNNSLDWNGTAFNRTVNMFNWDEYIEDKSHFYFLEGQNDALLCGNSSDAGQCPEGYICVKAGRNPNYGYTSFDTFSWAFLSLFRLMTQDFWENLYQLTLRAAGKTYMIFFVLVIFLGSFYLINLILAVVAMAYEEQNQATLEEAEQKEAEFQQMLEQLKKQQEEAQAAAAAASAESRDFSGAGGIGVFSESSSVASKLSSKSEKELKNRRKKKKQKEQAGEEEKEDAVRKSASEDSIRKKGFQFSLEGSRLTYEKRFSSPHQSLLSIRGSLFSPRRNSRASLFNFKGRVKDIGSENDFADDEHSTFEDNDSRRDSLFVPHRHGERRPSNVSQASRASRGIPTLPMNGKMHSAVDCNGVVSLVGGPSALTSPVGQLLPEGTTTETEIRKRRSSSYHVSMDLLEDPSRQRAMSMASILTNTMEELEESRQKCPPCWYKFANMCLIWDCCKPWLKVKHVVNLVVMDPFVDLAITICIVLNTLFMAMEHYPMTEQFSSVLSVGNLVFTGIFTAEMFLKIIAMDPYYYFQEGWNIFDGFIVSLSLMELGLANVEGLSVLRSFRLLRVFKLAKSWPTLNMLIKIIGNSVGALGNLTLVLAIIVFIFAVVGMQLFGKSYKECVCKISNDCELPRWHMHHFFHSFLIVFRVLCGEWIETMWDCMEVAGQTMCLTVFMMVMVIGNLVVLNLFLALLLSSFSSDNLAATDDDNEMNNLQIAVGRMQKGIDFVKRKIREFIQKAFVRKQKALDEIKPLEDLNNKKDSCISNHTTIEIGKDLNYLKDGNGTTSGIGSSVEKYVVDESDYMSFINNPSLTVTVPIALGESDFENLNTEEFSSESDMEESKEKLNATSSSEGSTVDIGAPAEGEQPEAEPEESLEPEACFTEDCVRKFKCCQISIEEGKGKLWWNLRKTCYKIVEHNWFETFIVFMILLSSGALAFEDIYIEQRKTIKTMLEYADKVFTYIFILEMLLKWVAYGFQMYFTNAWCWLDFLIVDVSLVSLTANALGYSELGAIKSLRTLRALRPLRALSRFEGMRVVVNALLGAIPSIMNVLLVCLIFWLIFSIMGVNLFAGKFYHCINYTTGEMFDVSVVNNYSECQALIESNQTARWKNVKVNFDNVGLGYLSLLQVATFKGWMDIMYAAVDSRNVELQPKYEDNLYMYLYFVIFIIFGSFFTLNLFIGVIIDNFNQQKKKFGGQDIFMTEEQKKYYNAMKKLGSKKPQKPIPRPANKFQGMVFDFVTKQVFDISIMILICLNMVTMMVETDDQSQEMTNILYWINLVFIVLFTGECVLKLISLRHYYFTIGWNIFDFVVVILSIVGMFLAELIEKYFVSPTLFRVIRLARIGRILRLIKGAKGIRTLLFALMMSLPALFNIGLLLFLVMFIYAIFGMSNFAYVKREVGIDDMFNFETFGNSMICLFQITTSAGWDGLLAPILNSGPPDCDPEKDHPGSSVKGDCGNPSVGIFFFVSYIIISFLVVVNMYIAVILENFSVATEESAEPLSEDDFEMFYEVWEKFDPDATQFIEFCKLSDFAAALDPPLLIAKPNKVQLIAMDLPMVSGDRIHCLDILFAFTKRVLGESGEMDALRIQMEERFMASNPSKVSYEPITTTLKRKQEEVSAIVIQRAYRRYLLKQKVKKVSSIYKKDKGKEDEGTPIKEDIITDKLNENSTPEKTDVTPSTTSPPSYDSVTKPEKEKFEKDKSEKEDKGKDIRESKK
# UniProt P15390, whole entry, looked up: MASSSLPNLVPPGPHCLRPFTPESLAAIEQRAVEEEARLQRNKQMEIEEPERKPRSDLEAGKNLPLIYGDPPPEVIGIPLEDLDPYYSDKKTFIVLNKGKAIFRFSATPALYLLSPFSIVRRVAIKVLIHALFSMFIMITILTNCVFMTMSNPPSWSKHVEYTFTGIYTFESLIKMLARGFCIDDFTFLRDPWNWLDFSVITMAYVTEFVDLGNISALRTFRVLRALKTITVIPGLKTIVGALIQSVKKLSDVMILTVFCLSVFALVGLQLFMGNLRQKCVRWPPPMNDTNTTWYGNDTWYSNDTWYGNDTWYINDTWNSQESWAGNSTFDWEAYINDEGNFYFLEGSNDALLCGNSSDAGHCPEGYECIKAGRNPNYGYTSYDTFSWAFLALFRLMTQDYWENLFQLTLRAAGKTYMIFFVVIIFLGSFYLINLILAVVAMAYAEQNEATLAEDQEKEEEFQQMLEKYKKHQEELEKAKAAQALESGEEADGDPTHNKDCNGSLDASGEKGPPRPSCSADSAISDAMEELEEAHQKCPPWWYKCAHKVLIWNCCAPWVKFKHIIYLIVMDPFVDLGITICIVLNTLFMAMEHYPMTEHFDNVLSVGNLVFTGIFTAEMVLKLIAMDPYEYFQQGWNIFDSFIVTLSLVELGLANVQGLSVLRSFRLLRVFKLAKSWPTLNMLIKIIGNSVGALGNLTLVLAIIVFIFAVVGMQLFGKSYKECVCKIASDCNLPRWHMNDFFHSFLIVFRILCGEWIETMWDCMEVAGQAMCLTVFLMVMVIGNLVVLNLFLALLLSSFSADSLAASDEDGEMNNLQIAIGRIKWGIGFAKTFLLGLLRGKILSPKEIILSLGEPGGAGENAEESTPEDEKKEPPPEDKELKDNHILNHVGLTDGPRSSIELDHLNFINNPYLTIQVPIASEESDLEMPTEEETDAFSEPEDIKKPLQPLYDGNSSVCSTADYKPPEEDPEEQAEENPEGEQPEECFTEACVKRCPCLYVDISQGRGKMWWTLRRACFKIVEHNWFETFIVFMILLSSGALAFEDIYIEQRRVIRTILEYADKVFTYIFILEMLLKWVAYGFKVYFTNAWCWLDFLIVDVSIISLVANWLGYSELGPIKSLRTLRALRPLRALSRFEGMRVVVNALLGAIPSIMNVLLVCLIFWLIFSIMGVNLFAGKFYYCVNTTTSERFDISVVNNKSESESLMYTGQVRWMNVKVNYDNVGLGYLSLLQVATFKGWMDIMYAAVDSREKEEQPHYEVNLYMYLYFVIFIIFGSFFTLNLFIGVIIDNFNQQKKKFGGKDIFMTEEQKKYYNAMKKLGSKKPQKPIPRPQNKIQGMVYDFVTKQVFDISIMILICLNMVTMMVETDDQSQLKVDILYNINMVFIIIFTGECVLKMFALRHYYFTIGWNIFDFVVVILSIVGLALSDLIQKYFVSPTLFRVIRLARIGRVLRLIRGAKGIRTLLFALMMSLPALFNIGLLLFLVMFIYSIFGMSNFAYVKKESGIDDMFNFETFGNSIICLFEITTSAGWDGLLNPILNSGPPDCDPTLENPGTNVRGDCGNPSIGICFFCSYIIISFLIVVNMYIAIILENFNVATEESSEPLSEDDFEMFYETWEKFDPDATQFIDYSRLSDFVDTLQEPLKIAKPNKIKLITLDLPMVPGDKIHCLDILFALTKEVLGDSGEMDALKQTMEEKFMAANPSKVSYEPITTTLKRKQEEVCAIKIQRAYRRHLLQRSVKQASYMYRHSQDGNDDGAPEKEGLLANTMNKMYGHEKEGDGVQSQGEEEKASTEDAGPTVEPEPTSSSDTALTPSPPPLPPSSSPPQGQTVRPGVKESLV
# Tests used:
# [1] = tested on: TSha1 K^+ channel; experiment: Two-electrode voltage clamp, TSha1 K+ channel in Xenopus oocytes; state-dependent block; assay type: cell-based, trout
# [2] = target: Shaker K^+ channel (Drosophila melanogaster, UniProt P08510)
# [3] = target: Nav1.2 (rat brain Type II) (Rattus norvegicus, UniProt P04775); conditions: 2 μM or 10 μM
# [4] = target: Nav1.4 (rat skeletal muscle) (Rattus norvegicus, UniProt P15390)
# [5] = target: Shaker-Δ6-46 K427D (Drosophila melanogaster, UniProt P08510, DEL6-46/K427D); experiment: State-dependent block of Shaker-Δ6-46 K427D in Xenopus oocytes
# [6] = target: Shaker F425G (Drosophila melanogaster, UniProt P08510, F425G); experiment: Two-electrode voltage clamp, Shaker F425G mutant in Xenopus oocytes; conditions: 2 μM toxin
# [7] = target: Shaker T449Y (Drosophila melanogaster, UniProt P08510, T449Y); experiment: Two-electrode voltage clamp, Shaker T449Y mutant in Xenopus oocytes; conditions: 2 μM toxin
smiles,measurement,setting,value
CC(C)C[C@@H]1NC(=O)[C@H](CO)NC(=O)[C@@H]2CSSC[C@@H]3NC(=O)[C@@H]4C[C@@H](O)CN4C(=O)[C@H](CC(N)=O)NC(=O)[C@H](CCCNC(=N)N)NC(=O)[C@H](CCCCN)NC(=O)[C@H](CSSC[C@H](NC(=O)[C@H](CO)NC(=O)[C@@H]4C[C@@H](O)CN4C(=O)[C@@H](N)CC(C)C)C(=O)N2)NC(=O)[C@H](C)NC(=O)[C@@H]2C[C@@H](O)CN2C(=O)[C@H](C(C)C)NC(=O)[C@@H]2C[C@@H](O)CN2C(=O)[C@H](CSSC[C@@H](C(=O)N[C@H](C(N)=O)[C@@H](C)O)NC3=O)NC(=O)[C@H](CC(C)C)NC(=O)[C@H](CCCNC(=N)N)NC(=O)[C@H](CC(C)C)NC(=O)[C@H](CC(N)=O)NC1=O,reversibility of TSha1 block,[1]; 1 μM toxin,reversible
same,"k^(C)off, factor of difference between Shaker-Δ6-46 K427D and Tsha1",[1]; closed state,10
same,k^(C)off,"[1]; closed state, n=3",0.25 ± 0.04 s⁻¹
same,k^(C)on,"[1]; closed state, n=3",1.69e+07 ± 6.9e+06 M⁻¹ s⁻¹
same,k^(O)off,"[1]; open state, n=4",5.2 ± 1.8 s⁻¹
same,k^(O)on,"[1]; open state, n=4",8.8e+07 ± 2.5e+07 M⁻¹ s⁻¹
same,effect on Shaker-mediated whole cell currents,"[2]; 2 μM toxin, test potentials 0, 20 and 40 mV",block of the currents
same,Hill coefficient,"[2]; dose response, Shaker channel",1
same,effect on currents of Nav1.2,[3],did not show any detectable effect
same,effect on currents of Nav1.4,[4]; 2 μM or 10 μM,did not show any detectable effect
same,effect on Nav1.4 evoked currents,"[4]; 10 μM, test potentials −80 to +60 mV",no effect
same,"k^(C)off, factor of difference between Shaker-Δ6-46 and Shaker-Δ6-46 K427D",[5]; closed state,three
same,"k^(C)on, times higher than in the Shaker-Δ6-46 channel",[5]; closed state,about four
same,k^(C)off,"[5]; closed state, n=6",2.2 ± 0.9 s⁻¹
same,k^(C)on,"[5]; closed state, n=6",1.67e+07 ± 8.6e+06 M⁻¹ s⁻¹
same,k^(O)off,"[5]; open state, n=3",19 ± 2.5 s⁻¹
same,k^(O)on,"[5]; open state, n=3",5.7e+07 ± 2.6e+07 M⁻¹ s⁻¹
same,sensitivity of F425G channel to toxin,[6],insensitive
same,sensitivity of T449Y channel to toxin,[7],insensitive
